Measured values from patent CN116406375A, “抗SARS-CoV-2刺突蛋白的三聚体抗体” (UNIV SHANGHAI TECHNOLOGY, dated 2023).

Molecular target: SARS-CoV-2 K417N+E484K+N501Y+D614G假病毒的刺突Δ19 (SARS-CoV-2, UniProt P0DTC2 14-1254)
Experiment: cell-based or functional assay

B1: S-B2二聚体 (antibody, V domains shown)
VH: QVQLQESGGGVVQPGRSLRLSCAASGFTFSSYAMHWVRQAPGKGLEWVAVISYDGSNKYYADSVKGRFTISRDNSKNTLYLQMNSLRAEDTAVYYCARDYGDYLLDYWGQGTLVTVSS
VL: LSALTQPASASGSPGQSVTISCTGTSSDVGGYNYASWYQQHPGKAPKLLIYEVTKRPSGVPDRFSSSKSGNTASLTVSGLQAEDEADYYCSSYTGTLLLFGGGTKLTVL
NT50(B.1.351): > 100 nM

B2: S-D9二聚体 (antibody, V domains shown)
VH: QVQLVQSGAELKKPGESLKISCTASGYSFTNYWIAWVRQMPGKGLEWMGIVNPADSDTRYSPAFQGQVTMSADKSFNTAYLQWSRLKASDTAMYYCARLGQDHNSGWYTYFHPMDVWGQGTTVTVSS
VL: QSALTQPASVSGSPGQSITISCTGTRSDVGGYNYVSWYQQHPGKAPKLLIFGVNDRPSGVSDRFSGSRTGNTASLTISGLQPEDEADYYCSSFTRGTTLLVFG
NT50(B.1.351): ~1.5 nM
